The values that follow come from patent US6673827B1, “Methods of treating fungal infections with inhibitors of NAD synthetase enzyme” (priority 1999, dated 2004).

Experiment [1] relates to Cryptococcus neoformans SLP-BC0012854. Kind of experiment: In vitro study of inhibition of growth and lethality against yeast (MIC/MLC susceptibility test), isolate H. To be noted: 2nd pair of lines, isolate assigned by line order, tested form: iodide.
Experiment [2] deals with Candida tropicalis ATCC 750. Kind of experiment: In vitro study of inhibition of growth and lethality against yeast (MIC/MLC susceptibility test), isolate A. The conditions noted are these: 2nd pair of lines, isolate assigned by line order, tested form: iodide.
Experiment [3] relates to Cryptococcus neoformans DLB-1027594CNC. Kind of experiment: In vitro study of inhibition of growth and lethality against yeast (MIC/MLC susceptibility test), isolate G. The format is cell-based. To be noted: 1st pair of lines, isolate assigned by line order, tested form: iodide.
Experiment [4] concerns Candida albicans LH-000664533. Kind of experiment: In vitro study of inhibition of growth and lethality against yeast (MIC/MLC susceptibility test), isolate D. The format is cell-based. The conditions noted are these: 2nd pair of lines, isolate assigned by line order, tested form: iodide.
For experiment [5], the system named is Candida albicans KJP-000531594. Nature of the experiment: In vitro study of inhibition of growth and lethality against yeast (MIC/MLC susceptibility test), isolate C. To be noted: 1st pair of lines, tested form: iodide.
For experiment [6], the system named is Candida tropicalis ATCC 28707. Kind of experiment: In vitro study of inhibition of growth and lethality against yeast (MIC/MLC susceptibility test), isolate B. The conditions noted are these: 1st pair of lines, isolate assigned by line order, tested form: iodide. The format is cell-based.
For experiment [7], the system named is Torulopsis glabrata ERH-BC9938274. Kind of experiment: In vitro study of inhibition of growth and lethality against yeast (MIC/MLC susceptibility test), isolate F. To be noted: 1st pair of lines, isolate assigned by line order, tested form: iodide. The format is cell-based.
For experiment [8], the system named is Torulopsis glabrata JHC-BC9951635. Nature of the experiment: In vitro study of inhibition of growth and lethality against yeast (MIC/MLC susceptibility test), isolate E. The conditions noted are these: 2nd pair of lines, isolate assigned by line order, tested form: iodide.

Where “and” joins values, the source holds several entries; their conditions need not be identical. Equal values may be shown once.

Consider `C[n+]1c2c(cc3ccccc31)C(=O)OCCCCCCCCn1cc-2c2cc(OCc3ccccc3)ccc21`, for which the “Minimum Lethal Conc. (MLC)” value is 16 µg/mL in experiment [1]; 8 µg/mL in experiment [2]; 16 µg/mL in experiment [3]; 16 µg/mL in experiment [4]; 8 µg/mL in experiment [5] (isolate assigned by line order); 4 µg/mL in experiment [6]. For the same molecule, the “Minimum Lethal Conc. (MLC)” value in experiment [7] and in experiment [8] was 32 µg/mL in each case. The “Minimum Inhibitory Conc. (MIC), 48 hr.” value in experiment [1] (read at 48 hr) came to 8 µg/mL; in experiment [2] (read at 48 hr) it was 4 µg/mL; in experiment [3] (read at 48 hr), 8 µg/mL; in experiment [4] (read at 48 hr) it was 4 µg/mL; in experiment [5] (read at 48 hr, isolate assigned by line order), 4 µg/mL; in experiment [6] (read at 48 hr), 0.5 µg/mL. The “Minimum Inhibitory Conc. (MIC), 48 hr.” value in experiment [7] (read at 48 hr) and in experiment [8] (read at 48 hr) was 16 µg/mL in each case. Moreover, the “Minimum Inhibitory Conc. (MIC), 72 hr.” value in experiment [1] (read at 72 hr) and in experiment [3] (read at 72 hr) was 8 µg/mL in each case. Further, the “Minimum Inhibitory Conc. (MIC), 24 hr.” value in experiment [2] (read at 24 hr) was 2 µg/mL and 4 µg/mL; in experiment [4] (read at 24 hr), 4 µg/mL and 2 µg/mL; in experiment [5] (read at 24 hr, isolate not given, assigned by line order and MLC of Table 4B) it was 2 µg/mL; in experiment [6] (read at 24 hr), 0.25 µg/mL and 0.5 µg/mL; in experiment [7] (read at 24 hr), 16 µg/mL and 8 µg/mL; in experiment [8] (read at 24 hr) it was 16 µg/mL and 8 µg/mL.
